System: HIV-1IIIB
Experiment: Syncytia assay (anti-HIV-1 activity)
Type: cell-based
Conditions: for TI (in vitro therapeutic index): CC50 value/EC50 value
Method: Cell line (C8166) and the laboratory-derived virus (HIV-1IIIB) were obtained from MRC, AIDS Reagent Project, London, UK. C8166 was maintainedin RPMI-1640 supplemented with 10% heat-inactivated newborn calf serum (Gibco, Grand Island, NY, USA). The cells used in all experiments were in log-phase growth. The 50% HIV-1IIIB tissue culture infectious dose (TCID50) in C8166 cells was determined and calculated by the Reed and Muench method. Virus stocks were stored in small aliquots at −70 °C.
In the presence of 100 μL various concentrations of 2-alkyl-2-(N-arylsulfonylindol-3-yl)-3-N-acyl-5-aryl-1,3,4-oxadiazolines, C8166 cells (4 × 10^5/mL) were infected with virus HIV-1IIIB at a multiplicity of infection (M.O.I) of 0.06. The final volume per well was 200 μL. Control assays were performed without the testing compounds in HIV-1IIIB infected and uninfected cultures. After 3 days of culture, the cytopathic effect (CPE) was measured by counting the number of syncytia. Percentage inhibition of syncytia formation was calculated and 50% effective concentration (EC50) was calculated. AZT (Sigma-Aldrich, St. Louis, MO, USA) was used as a positive control. Therapeutic index (TI) = CC50/EC50.

| Compound | TI (in vitro therapeutic index) | also measured |
| --- | --- | --- |
| CC(=O)N1N=C(c2ccccc2)OC1(C)c1cn(S(=O)(=O)c2ccc(Cl)cc2)c2ccc(C#N)cc12 (stereo not drawn) [3a′, 2-Methyl-2-(N-p-chlorobenzenesulfonyl-5-cyanoindol-3-yl)-3-N-acetyl-5-phenyl-1,3,4-oxadiazolines] | 31.22 | TI value relative to that of 3z (TI ratio vs 3z): more than 10 times |
| CC(=O)N1N=C(c2ccccc2)OC1(C)c1cn(S(=O)(=O)c2ccc(C)cc2)c2ccc([N+](=O)[O-])cc12 (stereo not drawn) [3b′, 2-Methyl-2-(N-p-methylbenzenesulfonyl-5-nitroindol-3-yl)-3-N-acetyl-5-phenyl-1,3,4-oxadiazolines] | 13.94 |  |
| CC(=O)N1N=C(c2ccccc2)OC1(C)c1cn(S(=O)(=O)c2ccc(Cl)cc2)c2ccc([N+](=O)[O-])cc12 (stereo not drawn) [3c′, 2-Methyl-2-(N-p-chlorobenzenesulfonyl-5-nitroindol-3-yl)-3-N-acetyl-5-phenyl-1,3,4-oxadiazolines] | 8.89 |  |
| CCC1(c2cn(S(=O)(=O)c3ccccc3)c3ccccc23)OC(c2ccccc2)=NN1C(C)=O (stereo not drawn) [3d′, 2-Ethyl-2-(N-benzenesulfonylindol-3-yl)-3-N-acetyl-5-phenyl-1,3,4-oxadiazolines] | 5.18 |  |
| CC(=O)N1N=C(c2ccccc2)OC1c1cn(S(=O)(=O)c2ccc(C)cc2)c2ccccc12 (stereo not drawn) [3e′] | 0.97 |  |
| CC(=O)N1N=C(c2ccccc2)OC1c1cn(S(=O)(=O)c2cccc([N+](=O)[O-])c2)c2ccccc12 (stereo not drawn) [3f′] | 24.27 | TI value relative to that of 3k′ (TI ratio vs 3k′): more than 28 times; TI value relative to that of 3h′ (TI ratio vs 3h′): ~18 times |
| CC(=O)N1N=C(c2ccccc2)OC1c1cn(S(=O)(=O)c2ccc(C)cc2)c2cc(C)ccc12 (stereo not drawn) [3g′] | 3.59 |  |
| CC(=O)N1N=C(c2ccccc2)OC1c1cn(S(=O)(=O)c2ccc(Cl)c([N+](=O)[O-])c2)c2ccccc12 (stereo not drawn) [3h′] | 1.36 |  |
| CC(=O)N1N=C(c2ccccc2)OC1c1cn(S(=O)(=O)c2cccc([N+](=O)[O-])c2)c2cc(C)ccc12 (stereo not drawn) [3i′] | 39.59 | TI value relative to that of 3j′ (TI ratio vs 3j′): ~220 times; TI value relative to that of 3l′ (TI ratio vs 3l′): more than 12 times |
| CC(=O)N1N=C(c2ccccc2)OC1c1cn(S(=O)(=O)c2ccc(Cl)c([N+](=O)[O-])c2)c2cc(C)ccc12 (stereo not drawn) [3j′] | 0.18 |  |
| CC(=O)N1N=C(c2ccccc2)OC1c1cn(S(=O)(=O)c2ccc(Cl)cc2)c2ccccc12 (stereo not drawn) [3k′] | 0.86 |  |
| CC(=O)N1N=C(c2ccccc2)OC1c1cn(S(=O)(=O)c2ccc(Cl)cc2)c2cc(C)ccc12 (stereo not drawn) [3l′] | 3.16 |  |
| COc1ccc(S(=O)(=O)n2cc(C3OC(c4ccccc4)=NN3C(C)=O)c3ccccc32)cc1 (stereo not drawn) [3m′] | 0.55 |  |
| COc1ccc(S(=O)(=O)n2cc(C3OC(c4ccccc4)=NN3C(C)=O)c3ccc(C)cc32)cc1 (stereo not drawn) [3n′] | 0.68 |  |
| CC(=O)N1N=C(c2ccccc2)OC1c1cn(S(=O)(=O)c2ccc(C)cc2)c2ccc(C#N)cc12 (stereo not drawn) [3o′] | 8.36 |  |
| CC(=O)N1N=C(c2ccccc2)OC1c1cn(S(=O)(=O)c2cccc([N+](=O)[O-])c2)c2ccc(C#N)cc12 (stereo not drawn) [3p′] | 2.12 |  |
| CCC(=O)N1N=C(c2ccccc2)OC1c1cn(S(=O)(=O)c2ccc(C)cc2)c2ccccc12 (stereo not drawn) [3q′] | 26.01 | TI value relative to that of 3e′ (TI ratio vs 3e′): ~27 times |
| CCC(=O)N1N=C(c2ccccc2)OC1c1cn(S(=O)(=O)c2ccc(C)cc2)c2ccc(C#N)cc12 (stereo not drawn) [3r′] | 24.51 |  |
| CC(=O)N1N=C(c2ccccc2)OC1(C)c1cn(S(=O)(=O)c2ccccc2)c2cc(C)ccc12 (stereo not drawn) [3y, 2-Methyl-2-(N-benzenesulfonyl-6-methylindol-3-yl)-3-N-acetyl-5-phenyl-1,3,4-oxadiazolines] | > 32.68 |  |
| CC(=O)N1N=C(c2ccccc2)OC1(C)c1cn(S(=O)(=O)c2ccccc2)c2ccc(C#N)cc12 (stereo not drawn) [3z, 2-Methyl-2-(N-benzenesulfonyl-5-cyanoindol-3-yl)-3-N-acetyl-5-phenyl-1,3,4-oxadiazolines] | 3.01 |  |
| Cc1cn([C@H]2C[C@H](N=[N+]=[N-])[C@@H](CO)O2)c(=O)[nH]c1=O [AZT, 3′-azido-3′-deoxythymidine, reference compound] | 690,035 |  |

Source: publication PMC6278315, “Microwave-Assisted Expeditious Synthesis of 2-Alkyl-2-(N-arylsulfonylindol-3-yl)-3-N-acyl-5-aryl-1,3,4-oxadiazolines Catalyzed by HgCl2 under Solvent-Free Conditions as Potential Anti-HIV-1 Agents” (Molecules, 2018)
